The record followed here is paper PMC7997285, “The Alphaviral Capsid Protein Inhibits IRAK1-Dependent TLR Signaling” (2021).

In the test the target is human IRAK1 fused to the N-terminal Nanoluc fragment N67 (human) (UniProt P51617). Nature of the test: split reporter (BiFC, NanoBiT).

“EEEV capsid protein fused to the C-terminal Nanoluc fragment C67 (natural protein)” yielded a fold Nanoluc activity over control reactions of 20 fold.
